Molecules are shown by their SMILES.

The assay deals with influenza virus A, A(Leningrad)23/81/HON1/. The assay can be described thus: sensitivity of influenza virus A strain A(Leningrad)23/81/HON1/ in chick embryos. Conditions: for Virus titres (lg EID50): 1 mg/embryo; for log reduction at 1 mg/embryo: unidentified influenza virus, 48 h, read-out: Titre difference in control and experiment (lg EID50). Type of assay: in vivo.

As to `CC1=C(C(=O)OC2CC3CCC2(C)C3(C)C)C2Nc3ccccc3N(C)C2O1` (stereo not shown) [compound 1a, isobornyl ester of 2,9-dimethyl-3a,4,9,9a-tetrahydrofuro [2,3-b] quinoxaline-3-carboxylic acid], the “Virus titres (lg EID50)” value is reported as 3.0 lg EID50 and the log reduction at 1 mg/embryo was determined as 1.75.

In the case of `CC(N)C12CC3CC(CC(C3)C1)C2` (stereo not shown) [remantadine, reference compound], the “Virus titres (lg EID50)” value amounted to 4.5 lg EID50 and the log reduction at 1 mg/embryo was 0.25.
